Laboratory results: PubChem BioAssay AID504761 (Drosophila RNAi Screening Center, 2011)

Screen: 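Fly genes whose silencing reduces dengue virus type 2 infection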 (primary screen)
Cell system: D.Mel-2 cells from Drosophila
Reagent: long dsRNA against Drosophila genes
Treatment: infection with dengue virus type 2; dose and infection time not stated
Read-out: 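Cells stained for dengue envelope protein and imaged; percent of infected cells per well on duplicate plates, ranked by infection, with stained nuclei counted for cell number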
Scale: infection score: higher = more virus-infected cells
Call rule: 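Very low infection ranking in both replicate wells (chance probability at most 0.065), then a retest showing infection dropped 1.5-fold or more at p below 0.05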
Meaning of the calls: active = confirmed: knock-down lowers infection; inactive = not picked or not confirmed
The deposit covers about 22,000 reagents; shown is an unselected part of those with a known target gene and a result. Over the whole deposit, 116 (0.52%) got an active call. 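Calls depend on retest data that are not deposited; infection was ranked per plate without normalising between plates; the unit of the infection score is not given.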 A number with no mark means an inactive call. Not all columns of the deposit are shown. Not given: the amount of reagent, the time to read-out.

| target | amplicon | infection score, replicate 1 | infection score, replicate 2 |
| --- | --- | --- | --- |
| CG11585 | DRSC19410 | 1.35 | 3.84 |
| CG11585 | DRSC27386 | 13.7 | 13.6 |
| CG4362 | DRSC15567 | 4.65 | 0.63 |
| CBP | DRSC17746 | 3.16 | 9.53 |
| twy | DRSC10562 | 2.93 | 3.3 |
| Hsp26 | DRSC11189 | 4.8 | 5.28 |
| CG46301 | DRSC01916 | 2.03 | 6.62 |
| CG46301 | DRSC25566 | 5.03 | 1.69 |
| ND-B14 | DRSC07029 | 21.5 | 8.79 |
| ND-B14 | DRSC28660 | 22.1 | 23.1 |
| SMSr | DRSC10998 | 6.13 | 7.11 |
| SMSr | DRSC10999 | 3.88 | 3.49 |
| Pgant6 | DRSC08552 | 16.7 | 14.2 |
| Pgant6 | DRSC26927 | 22.4 | 22.1 |
| CG31269 | DRSC15744 | 7.99 | 4.27 |
| CG31269 | DRSC28845 | 26.2 | 23.2 |
| Snmp2 | DRSC10228 | 2.9 | 6.94 |
| Snmp2 | DRSC10843 | 6.27 | 2.57 |
| wal | DRSC07717 | 32.1 | 9.28 |
| wal | DRSC26330 | 6.05 | 3.61 |
| RpS10b | DRSC19561 | 19 | 11.7 |
| CG3281 | DRSC15470 | – | 9.08 |
| CG3281 | DRSC28414 | 1.29 (active) | 2.44 |
| bcn92 | DRSC18741 | 4.04 | 1.25 |
| bcn92 | DRSC28946 | – | 3.1 |
| Tnks | DRSC14154 | 9.42 | 4.17 |
| CG17486 | DRSC07752 | 11.1 | 17.2 |
| d-cup | DRSC14846 | 5.38 | 7.41 |
| CG46298 | DRSC06222 | 2.6 | 12.2 |
| CG46298 | DRSC23884 | 2.94 | 5.06 |
| Sym | DRSC12301 | 6.2 | 4.52 |
| Sym | DRSC29255 | 7.62 | 13.8 |
| Pkn | DRSC06810 | 12.7 | 4.83 |
| Pkn | DRSC25936 | 2.69 | 4.09 |
| CG33307 | DRSC01349 | 1.74 | 3.36 |
| Lcp65Ad | DRSC11211 | 1.76 | 2.48 |
| Lcp65Ad | DRSC24630 | 13.6 | 0.66 |
| CG4854 | DRSC15663 | 0.89 | 0.7 |
| CG4854 | DRSC27454 | 6.48 | 10.2 |
| shu | DRSC04484 | 28.4 | 44.7 |
| shu | DRSC27390 | 21.8 | 27 |
| mthl15 | DRSC01120 | 1.74 | 0.68 |
| dx | DRSC18767 | 0.58 | 1.02 |
| dx | DRSC24880 | 4.38 | 2.71 |
| CG32086 | DRSC10586 | 2.19 | 5.01 |
| dmrt11E | DRSC19715 | 0.99 | 1.47 |
| dmrt11E | DRSC23784 | 1.89 | 4.1 |
| Dlic | DRSC19824 | 2.33 | 1.13 |
| CG7465 | DRSC08592 | 3.51 | 3.14 |
| CG7465 | DRSC22320 | 2.46 | 8.45 |
| CG7465 | DRSC23943 | 6.93 | 3.74 |
| CG3548 | DRSC04387 | 32.8 | 16.2 |
| CG3548 | DRSC29938 | 14.3 | 6.16 |
| Antp | DRSC23104 | 0.58 (active) | 0.81 |
| Antp | DRSC26749 | 3.24 | 5.11 |
| Ugt317A1 | DRSC04470 | 23.5 | 35.9 |
| scny | DRSC10509 | 12.7 | 4.68 |
| scny | DRSC23229 | 0.92 | 20.7 |
| scny | DRSC27520 | 2.93 | 6.13 |

Targets above whose target name starts with T or t (2):
| target | amplicon | infection score, replicate 1 | infection score, replicate 2 |
| --- | --- | --- | --- |
| twy | DRSC10562 | 2.93 | 3.3 |
| Tnks | DRSC14154 | 9.42 | 4.17 |
